Results of unrelated studies side by side (data: NIAID ChemDB).

All rows: whole-cell or culture tests

Neighbouring rows are from separate reports. An empty or dashed field is not shown. Zone: diameter of growth inhibition. Inhibition is in % at the dose shown (toxicity tests: loss of growth or viability). MIC50, MIC90 and the like: level of inhibition, or share of isolates inhibited.

SMILES | method | strain or isolate | organism | changes | endpoint | setting | tested at | result
N#Cc1cccc(Cn2cc(/C=N/Nc3nncs3)c3ccccc32)c1 | broth dilution | 1173P2 | Mycobacterium bovis BCG |  | MIC100 | 24 h |  | 125 µg/mL
CNCC1CCN(c2c(F)cc3c(=O)c(C(=O)O)cn(-c4ccc(F)cc4F)c3c2F)C1 |  | ATCC 6841 | Mycobacterium fortuitum |  | MIC |  |  | 0.25 µg/mL
CC[C@H]1OC(=O)[C@H](C)[C@@H](O[C@H]2C[C@@](C)(OC)[C@@H](O)[C@H](C)O2)[C@H](C)[C@@H](O[C@@H]2O[C@H](C)C[C@H](N(C)C)[C@H]2O)[C@](C)(OC)C[C@@H](C)C(=O)[C@H](C)[C@@H](O)[C@]1(C)O | broth dilution | X13 | Mycobacterium bolletii |  | MIC |  |  | 0.5 µg/mL
CCN1CCN(c2c(F)cc3c(=O)c(C(=O)O)cn(C4CC4)c3c2F)CC1 |  | KD1998 (GYRA D95N) | Mycobacterium smegmatis |  | MIC99 |  |  | 2.6 µg/mL
CN1CC2=C(C(=O)c3ccccc3C2=O)C12C(=O)Nc1ccc(Br)cc12 | agar diffusion |  | Mycobacterium luteus |  | zone |  | 50 µg/mL | 17 mm
NNC(=S)N/N=C/c1cn(Cc2ccccc2Cl)c2ccccc12 | broth dilution | 1173P2 | Mycobacterium bovis BCG |  | MIC100 | 24 h |  | 500 µg/mL
CC1CN(c2cc3c(cc2F)c(=O)c(C(=O)O)cn3C2CC2)CCN1 |  | KD1987 (GYRA A91V) | Mycobacterium smegmatis |  | MIC99 |  |  | 1.2 µg/mL
COc1nc2ccc(Br)cc2cc1[C@@H](c1ccccc1)[C@@](O)(CCN(C)C)c1cccc2ccccc12 | resazurin |  | Mycobacterium aurum | T523 insertion | MIC |  |  | 0.04 µg/mL
CCC1CN(c2c(F)cc3c(=O)c(C(=O)O)cn(C4CC4)c3c2OC)CCN1 |  | KD1990 (GYRA D95A) | Mycobacterium smegmatis |  | MIC99 |  |  | 0.3 µg/mL
O=C(Nc1ccc(C(F)(F)F)cc1)c1cc(Cl)ccc1OP(=O)(OCc1ccccc1)OCc1ccccc1 |  | My 6509/96 | Mycobacterium kansasii |  | MIC | 21 d |  | 16 µM
NC1CCN(c2c(F)cc3c(=O)c(C(=O)O)cn(C4CC4)c3c2F)C1 |  | 1172733 | Mycobacterium avium complex |  | MIC |  |  | 16 µg/mL
O=C(Nc1ccc(C(F)(F)F)cc1)c1cc(Br)ccc1OP(=O)(Oc1ccccc1)Oc1ccccc1 |  | My 6509/96 | Mycobacterium kansasii |  | MIC | 7 d |  | 4 µM
CCC1CN(c2cc3c(cc2F)c(=O)c(C(=O)O)cn3C2CC2)CCN1 |  | KD1991 (GYRA D95Y) | Mycobacterium smegmatis |  | MIC99 |  |  | 3.8 µg/mL
CN(C)c1cc(NC(=O)CNC(C)(C)C)c(O)c2c1C[C@H]1C[C@H]3[C@H](N(C)C)C(=O)C(C(N)=O)=C(O)[C@@]3(O)C(=O)C1=C2O | broth dilution | X73 | Mycobacterium massiliense |  | MIC |  |  | 2 µg/mL
CNc1ccc2oc(C[C@@H]3OC4(CC[C@@H]3C)O[C@H](C(C)C(=O)c3ccc[nH]3)[C@H](C)C[C@H]4C)nc2c1C(=O)O | resazurin |  | Mycobacterium aurum | T125 insertion | MIC |  |  | 0.64 µg/mL
O=C(O)c1cn(C2CC2)c2c(F)c(N3CCNCC3)c(F)cc2c1=O |  | KD1990 (GYRA D95A) | Mycobacterium smegmatis |  | MIC99 |  |  | 0.65 µg/mL
COc1ccc(Cn2cc(/C=N/Nc3nncs3)c3ccccc32)cc1 | broth dilution | 1173P2 | Mycobacterium bovis BCG |  | MIC100 | 48 h |  | 3.91 µg/mL
Cc1nn(-c2ccccc2)c2c1C(c1cn(-c3ccccc3)nc1-c1ccc(Cl)cc1)C1=C(NC(C)(c3cc(O)c(I)cc3Cl)NC1=O)O2 | agar diffusion / agar | NCIM 2240 | Mycobacterium phlei |  | zone |  | 0.5 mg/mL | 1.5 mm
CN[C@@H]1[C@H](O[C@H]2[C@H](O[C@H]3[C@H](O)[C@@H](O)[C@H](N=C(N)N)[C@@H](O)[C@@H]3N=C(N)N)O[C@@H](C)[C@]2(O)C=O)O[C@@H](CO)[C@H](O)[C@H]1O | agar diffusion |  | Mycobacterium luteus |  | zone |  | 0.5 µg/mL | 23 mm
CC1CN(c2c(F)cc3c(=O)c(C(=O)O)cn(C4CC4)c3c2F)CC(C)N1 |  | ATCC 6841 | Mycobacterium fortuitum |  | MIC |  |  | 0.06 µg/mL
CCOc1cc(Cc2cnc(N)nc2N)cc(OCC)c1-n1cccc1 |  | Isolate 94-886 | Mycobacterium ulcerans |  | MBC |  |  | 1 µg/mL
O=C(O)c1cn(C2CC2)c2c(F)c(N3CCC(NC4CC4)C3)c(F)cc2c1=O |  | 14 strains | Mycobacterium avium complex |  | MIC90 |  |  | 8 µg/mL
CCCCCCNC(=O)Nc1ccc(S(=O)(=O)Nc2cc(C)on2)cc1 | broth dilution / absorbance | 6509/96 clinical isolate | Mycobacterium kansasii |  | MIC100 | 21 d |  | 250 µM
CN(C)c1c(F)c(N2CCC(N(C)C)C2)c(F)c2c1c(=O)c(C(=O)O)cn2C1CC1 |  | 1760694 | Mycobacterium avium complex |  | MIC |  |  | 32 µg/mL
O=C(Nc1ccc(Cl)c(Cl)c1)c1cc(Cl)ccc1OP(=O)(OCc1ccccc1)OCc1ccccc1 |  | My 6509/96 | Mycobacterium kansasii |  | MIC | 7 d |  | 125 µM
Cc1cc(NS(=O)(=O)c2ccc(NC(=O)C(=O)Nc3ccc(S(=O)(=O)Nc4cc(C)on4)cc3)cc2)no1 | broth dilution / absorbance | 6509/96 clinical isolate | Mycobacterium kansasii |  | MIC100 | 21 d |  | 8 µM
Cc1nn(-c2ccccc2)c2c1C(c1cn(-c3ccccc3)nc1-c1ccc(Cl)cc1)C1=C(NC(C)(c3cc(O)ccc3Cl)NC1=O)O2 | agar diffusion / agar | NCIM 2240 | Mycobacterium phlei |  | zone |  | 1 mg/mL | 3.5 mm
CCN1CCN(c2c(F)cc3c(=O)c(C(=O)O)cn(C4CC4)c3c2OC)CC1 |  | KD1995 (GYRA D95H) | Mycobacterium smegmatis |  | MIC99 |  |  | 0.76 µg/mL
O=C(Nc1ccc(C(F)(F)F)cc1)c1cc(Br)ccc1OP(=O)(OCc1ccccc1)OCc1ccccc1 |  | My 6509/96 | Mycobacterium kansasii |  | MIC | 14 d |  | 16 µM
CCc1cc(C(N)=S)ccn1 |  | Serovar 8 | Mycobacterium avium intracellulare |  | inhibition |  | 10 µg/mL | 100%
Cc1cc(NS(=O)(=O)c2ccc(NC(=O)Nc3ccc(S(=O)(=O)Nc4cc(C)on4)cc3)cc2)no1 | broth dilution / absorbance | 6509/96 clinical isolate | Mycobacterium kansasii |  | MIC100 | 7 d |  | 2 µM
COc1ccc(-c2nn(-c3ccccc3)cc2C2C3=C(NC(C)(c4cc(O)ccc4Cl)NC3=O)Oc3c2c(C)nn3-c2ccccc2)cc1 | agar diffusion / agar | NCIM 5138 | Mycobacterium smegmatis |  | zone |  | 0.1 mg/mL | 2.8 mm
CN1CC2=C(C(=O)c3ccccc3C2=O)C12C(=O)c1cccc3cccc2c13 | agar diffusion |  | Mycobacterium luteus |  | zone |  | 50 µg/mL | 8 mm
CCN1CCN(c2c(F)cc3c(=O)c(C(=O)O)cn(-c4ccc(F)cc4F)c3c2OC)CC1 |  | ATCC 6841 | Mycobacterium fortuitum |  | MIC |  |  | 2 µg/mL
COc1cc(Cc2cnc(N)nc2N)cc(OC)c1OCCCNc1ccc(S(=O)(=O)c2ccc(N)cc2)cc1 |  | Isolate 5155 | Mycobacterium ulcerans |  | MBC |  |  | 8 µg/mL
O=C(Nc1ccccc1)c1ccccc1OP(=O)(c1ccccc1)c1ccccc1 |  | My 6509/96 | Mycobacterium kansasii |  | MIC | 14 d |  | 250 µM
CC[C@@H](CO)NCCN[C@@H](CC)CO |  | 9838 | Mycobacterium avium complex |  | MBC |  |  | 30 µg/mL
NC1CCN(c2c(F)cc3c(=O)c(C(=O)O)cn(-c4ccc(F)cc4F)c3c2F)C1 |  | ATCC 6841 | Mycobacterium fortuitum |  | MIC |  |  | 0.25 µg/mL
CN(C)CC1CCN(c2c(F)cc3c(=O)c(C(=O)O)cn(C4CC4)c3c2F)C1 |  | 1915112 | Mycobacterium avium complex |  | MIC |  |  | 1 µg/mL
CCCNC(=O)Nc1ccc(S(=O)(=O)Nc2cc(C)on2)cc1 | broth dilution / absorbance | 235/80 | Mycobacterium kansasii |  | MIC100 | 7 d |  | 500 µM
CN[C@@H]1[C@H](O[C@H]2[C@H](O[C@H]3[C@H](O)[C@@H](O)[C@H](N=C(N)N)[C@@H](O)[C@@H]3N=C(N)N)O[C@@H](C)[C@]2(O)C=O)O[C@@H](CO)[C@H](O)[C@H]1O |  | Isolate C-49 | Mycobacterium avium complex |  | MIC |  |  | 100 µg/mL
CCOc1c(N2CCN(CC)CC2)c(F)cc2c(=O)c(C(=O)O)cn(C3CC3)c12 |  | ATCC 6841 | Mycobacterium fortuitum |  | MIC |  |  | 0.25 µg/mL
COc1c(N2CC(C)NC(C)C2)c(F)cc2c(=O)c(C(=O)O)cn(C3CC3)c12 |  | KD2003 (GYRA D95G) | Mycobacterium smegmatis |  | MIC99 |  |  | 0.71 µg/mL
Cc1nn(-c2ccccc2)c2c1C(c1cn(-c3ccccc3)nc1-c1ccc(Cl)cc1)C1=C(NC(C)(c3cc(O)c(Cl)c(O)c3)NC1=O)O2 | agar diffusion / agar | NCIM 2240 | Mycobacterium phlei |  | MIC |  |  | 90 µg/mL
CCCCCCN1C(=O)C2(C3=C(CN2C)C(=O)c2ccccc2C3=O)c2ccccc21 | agar diffusion |  | Mycobacterium luteus |  | zone |  | 50 µg/mL | 10 mm
CCn1cc(/C=N/NC(=S)NN)c2ccccc21 | broth dilution | 1173P2 | Mycobacterium bovis BCG |  | MIC100 | 48 h |  | >500 µg/mL
CCN1CCN(c2c(F)cc3c(=O)c(C(=O)O)cn(C4CC4)c3c2OC)CC1 |  | ATCC 6841 | Mycobacterium fortuitum |  | MIC |  |  | ≤0.03 µg/mL
CCCCCCCNC(=O)Nc1ccc(S(=O)(=O)Nc2cc(C)on2)cc1 | broth dilution / absorbance | 235/80 | Mycobacterium kansasii |  | MIC100 | 7 d |  | 4 µM
CC(C)N1CCN(c2cc3c(cc2F)c(=O)c(C(=O)O)cn3C2CC2)CC1 |  | KD1998 (GYRA D95N) | Mycobacterium smegmatis |  | MIC99 |  |  | 4.3 µg/mL
Cc1nn(-c2ccccc2)c2c1C(c1cn(-c3ccccc3)nc1-c1ccc(F)cc1)C1=C(NC(C)(c3cc(O)c(Cl)c(O)c3)NC1=O)O2 | agar diffusion / agar | NCIM 2240 | Mycobacterium phlei |  | zone |  | 0.1 mg/mL | 3.4 mm
CCN1C(=O)C2(C3=C(CN2C)C(=O)c2ccccc2C3=O)c2ccccc21 | agar diffusion |  | Mycobacterium luteus |  | MIC |  |  | 31.25 µg/mL

A second listing of 6 rows from above:

Cc1nn(-c2ccccc2)c2c1C(c1cn(-c3ccccc3)nc1-c1ccc(Cl)cc1)C1=C(NC(C)(c3cc(O)c(I)cc3Cl)NC1=O)O2 ; method: agar diffusion / agar ; strain or isolate: NCIM 2240 ; organism: Mycobacterium phlei ; endpoint: zone ; tested at: 0.5 mg/mL ; result: 1.5 mm
CCN1CCN(c2c(F)cc3c(=O)c(C(=O)O)cn(-c4ccc(F)cc4F)c3c2OC)CC1 ; strain or isolate: ATCC 6841 ; organism: Mycobacterium fortuitum ; endpoint: MIC ; result: 2 µg/mL
O=C(Nc1ccc(C(F)(F)F)cc1)c1cc(Br)ccc1OP(=O)(OCc1ccccc1)OCc1ccccc1 ; strain or isolate: My 6509/96 ; organism: Mycobacterium kansasii ; endpoint: MIC ; setting: 14 d ; result: 16 µM
NNC(=S)N/N=C/c1cn(Cc2ccccc2Cl)c2ccccc12 ; method: broth dilution ; strain or isolate: 1173P2 ; organism: Mycobacterium bovis BCG ; endpoint: MIC100 ; setting: 24 h ; result: 500 µg/mL
COc1cc(Cc2cnc(N)nc2N)cc(OC)c1OCCCNc1ccc(S(=O)(=O)c2ccc(N)cc2)cc1 ; strain or isolate: Isolate 5155 ; organism: Mycobacterium ulcerans ; endpoint: MBC ; result: 8 µg/mL
Cc1nn(-c2ccccc2)c2c1C(c1cn(-c3ccccc3)nc1-c1ccc(F)cc1)C1=C(NC(C)(c3cc(O)c(Cl)c(O)c3)NC1=O)O2 ; method: agar diffusion / agar ; strain or isolate: NCIM 2240 ; organism: Mycobacterium phlei ; endpoint: zone ; tested at: 0.1 mg/mL ; result: 3.4 mm